Anti-infective test results gathered from many reports (values: NIAID ChemDB through PubChem).

Common to all: tests in culture; organism: HIV-1; cells: PBL; read-out: EC50

a–b is a range or a potency band. ECn is the concentration giving n% inhibition of infection, replication or growth. An empty or dashed field is not shown. Lines come from different laboratories, so protocols vary.

| smiles | strain or isolate | changes | method | setting | value |
|---|---|---|---|---|---|
| [NH4+] | GUN1 | - | p24 | - | >100 µg/mL |
| CC(=O)N(O)CCCCCNC(=O)CCC(=O)N(O)CCCCCNC(=O)CCC(=O)N(O)CCCCCN | BaL | - | p24 | - | 8.5 µM |
| CC(C)(C)NC(=O)[C@@H]1C[C@@H]2CCCC[C@@H]2CN1C[C@@H](O)[C@H](Cc1ccccc1)NC(=O)[C@H](CC(N)=O)NC(=O)c1ccc2ccccc2n1 | LAI | - | RT activity | - | 0.01 µM |
| COC(=O)[C@H](Cc1ccccc1)NP(=O)(O)OC[C@H]1O[C@@H](n2cnc3cnccc32)[C@H](O)[C@@H]1O | A012 POST-AZT | - | p24 | - | >10 µM |
| O=c1[nH]cnc2c1ncn2[C@H]1CC[C@@H](CO)O1 | Clinical isolate | - | p24 | clinical isolate | 2.5 µM |
| CC(C)c1nc(CN(C)C(=O)N[C@H](C(=O)N[C@@H](Cc2ccccc2)C[C@H](O)[C@H](Cc2ccccc2)NC(=O)OCc2cncs2)C(C)C)cs1 | LAI | - | RT activity | - | 0.02 µM |
| Nc1nc(N)c2ncn(CC(CF)OCP(=O)(O)O)c2n1 | IIIB | - | - | - | 1.85 µM |
| Cc1c(O)c(=O)ccn1C | BaL | - | p24 | - | <100 µM |
| O=c1c2ccccc2n2nnc3ccc(NCCCN4CCN(CCCNc5ccc6nnn7c8ccccc8c(=O)c5c67)CC4)c1c32 | CLADE F | - | p24 | - | 0.0074 µM |
| O=c1[nH]cnc2c1ncn2[C@H]1CC[C@@H](CO)O1 | U455 | - | p24 | - | 0.6 µM |
| COc1ccc2c(c1)N(C(=O)OC(C)C)[C@@H](CSC)C(=S)N2 | I420 AZT-resistant (RT M41L D67N K70R T215Y) | RT-M41L D67N K70R T215Y | p24 | - | 0.001 µM |
| Nc1nccc2c1ncn2[C@@H]1C[C@H](CO)[C@@H](O)[C@H]1O | A012 PRE-AZT | - | p24 | - | 0.141 µM |
| Nc1ncnc2c1ncn2CC(CF)OCP(=O)(O)O | IIIB | - | - | - | 3.9 µM |
| CCc1cc(NCc2nc3c(Cl)ccc(Cl)c3o2)c(=O)[nH]c1C | D34 | - | syncytia | - | 0.03 µM |
| C=C(C)OC(=O)N1c2cc(Cl)ccc2NC(=S)C1(C)C | D34 | - | p24 | - | 0.003 µM |
| CC(C)Nc1cccnc1N1CCN(C(=O)c2cc3cc(NS(C)(=O)=O)ccc3[nH]2)CC1 | IIIB | - | p24 | - | 0.0001–0.001 µM |
| CCNc1cccnc1N1CCN(C(=O)c2cc3cc(OC)ccc3[nH]2)CC1 | D34 | - | syncytia | - | 0.03 µM |

For reference, 2 entries again:

smiles | strain or isolate | changes | method | setting | value
Nc1nccc2c1ncn2[C@@H]1C[C@H](CO)[C@@H](O)[C@H]1O | A012 PRE-AZT | - | p24 | - | 0.141 µM
Cc1c(O)c(=O)ccn1C | BaL | - | p24 | - | <100 µM